Source: paper PMC4033508

Test system: O=C(O)CC(=O)C(=O)O
Assay: purified protein
Settings: pH 6.0; 40.0 °C

For “His-MDH (B. abortus malate dehydrogenase) (Brucella abortus 2308)”, the Km was 6.45 mM.
